Reference: patent US20230321082A1, “USE OF TRIAZOLE ANALOGUES FOR INHIBITION OF A TRIPARTITE VOR PROTEIN COMPLEX IN MULTICELLULAR ORGANISMS” (TECHNISCHE UNIVERSITÄT DRESDEN, priority 2020, published 2023)

Test system: SW480 cells expressing ER-RFP
Assay: Subcellular localization of fluorescent compound, confocal microscopy
Format: cell-based
Details: 2 μM, 1 hour, washed, then incubated

Question: Which “accumulation in perinuclear zone (fluorescence intensity)” value does the source give for `CCn1ncn(-c2ccc(Nc3ccc([N+](=O)[O-])c4nonc34)cc2)c1=O` [compound 24] here?
Answer: progressive accumulation

Question: And the “presence inside the NEI” value?
Answer: inside the NEI
